A mixed list of measured activities; the numbers were collected in NIAID ChemDB.

Common to all: whole-cell or culture tests; organism: Herpes simplex virus 1; read-out: EC50

ECn: concentration that inhibits the pathogen or its effect by n%. Two numbers with a dash give a range or band. Blank or dashed fields: not listed here. Lines come from different laboratories, so protocols vary.

structure,read by,strain or isolate,cell line,result
Cc1cn([C@H]2S[C@@H](CO)[C@H](O)[C@H]2F)c(=O)[nH]c1=O,plaque count,VR-3,CCRF-HSB-2,1.56 µM
CCCCCCCCCCCCCCCCCCOCCCOP1(=O)CO[C@@H](Cn2ccc(N)nc2=O)CO1,plaque count,HL-3,HFF,>1 µM
CCCCCCCCCCCCCCCC(=O)OC[C@H]1OC(OC(=O)NS(=O)(=O)OC[C@H]2O[C@@H](n3ccc(=O)[nH]c3=O)[C@@H]3OC(C)(C)O[C@@H]32)[C@H](OC(=O)CCCCCCCCCCCCCCC)[C@@H](OC(=O)CCCCCCCCCCCCCCC)[C@@H]1OC(=O)CCCCCCCCCCCCCCC,cytopathic effect,,HeLa,30 µM
CC(=O)OC[C@H]1[C@H](COC(C)=O)[C@@H](COC(C)=O)O[C@H]1n1cnc2c(N)ncnc21,plaque count,Clinical isolate Wilson,MEF,123 µM
CCCCc1cn([C@@H]2OC3COP(=O)(O)OC3[C@H]2O)c(=O)nc1N,,McIntyre,,>400 µg/mL
CSCc1cn([C@H]2C[C@H](O)[C@@H](CO)O2)c(=O)[nH]c1=O,cytopathic effect,KOS,HSF,1 µg/mL
O=C(NNC(=S)Nc1ccccc1)c1cc(-c2cc(F)cc(F)c2)ccc1O,cytopathic effect,KOS,HELA/VERO/HEL,9.6 µg/mL
Nc1nc2c(ncn2COC(CO)CO)c(=O)[nH]1,plaque count,MGH 10,VERO,0.5 µM
CNC(=S)NNC(=O)c1cc(-c2cc(F)cc(F)c2)ccc1O,cytopathic effect,KOS,HELA/VERO/HEL,16 µg/mL
Cc1cn([C@H]2C[C@](O)(CO)CO2)c(=O)[nH]c1=O,,,CCL18,>100 µM
CCCCCCCCCCCCCCCCOP(=O)(O)CO[C@H](CO)Cn1ccc(N)nc1=O,plaque count,F,HFF,0.3 µM
CC(=O)OC[C@H]1[C@H](COC(C)=O)[C@@H](CO)O[C@H]1n1cnc2c(N)ncnc21,plaque count,E-377,MEF,122 µM
CCc1cn([C@H]2C[C@H](O)[C@@H](CO)O2)c(N)nc1=O,cytopathic effect,McIntyre,PRK,>400 µg/mL
Cc1nc(N(C)C(=O)Cc2ccc(-c3ccccn3)cc2)sc1S(N)(=O)=O,plaque count,1 (KOS),HEF,0.014 µM
CCCCCCCCCCCCCCCCCOC[C@H](COP1(=O)CO[C@@H](Cn2ccc(N)nc2=O)CO1)OCc1ccccc1,plaque count,E-377,HFF,0.4 µM
Nc1nc2c(ncn2COCCO)c(=O)[nH]1,cytopathic effect,B2006 (TK-),PRK,70 µg/mL
O=c1[nH]c(=O)n([C@@H]2O[C@H](CO)[C@@H](O)[C@@H]2O)cc1/C=C/Cl,plaque count,VR-3,CCRF-HSB-2,0.085 µM
Nc1nc2c(ncn2C[C@]2(CO)C[C@H]2CO)c(=O)[nH]1,plaque count,KOS,BALB/3T3,0.0013 µg/mL
Cc1cn(CCCC(O)CF)c(=O)[nH]c1=O,cytopathic effect,KOS,ESM,>400 µg/mL
O=c1[nH]c(=S)n([C@@H]2O[C@H](CO)[C@@H](O)[C@@H]2O)cc1/C=C/Br,cytopathic effect,KOS (TK+),RPMI8226,23.9 µM
Nc1ncnc2c1ncn2C[C@@H](CO)OCP(=O)(O)O,cytopathic effect,KOS,PRK,1 µg/mL
O=c1[nH]c(=O)n([C@H]2C[C@H](O)[C@@H](CO)O2)cc1/C=C/Br,cytopathic effect,B2006 (TK-),PRK,300 µg/mL
O=Cc1cn([C@H]2C[C@H](O)[C@@H](CO)O2)c(=O)[nH]c1=O,cytopathic effect,VEO231,PRK,1 µg/mL
CCCc1cn([C@H]2C[C@H](O)[C@@H](CO)O2)c(=S)[nH]c1=O,cytopathic effect,KOS (TK+),RPMI8226,0.47 µM
O=c1[nH]c(=O)n([C@@H]2O[C@H](CO)[C@@H](O)[C@@H]2O)cc1/C=C/Cl,plaque count,CHR-3,HELF,0.017 µg/mL
CC(C)C[C@H](NC(=O)[C@@H]1O[C@H]1C(=O)O)C(=O)NCCCCN=C(N)N,plaque count,Fukuda,CV-1,20–40 µM
CCCCCCCC/C=C\CCCCCCCCOCCOP(=O)(O)CO[C@H](CO)Cn1ccc(N)nc1=O,plaque count,F,HFF,0.03 µM
O=c1[nH]c(=S)n([C@H]2C[C@H](O)[C@@H](CO)O2)cc1Cl,plaque count,TK-,MRC-5,>360 µM
Cc1cn([C@@H]2O[C@H](CO)[C@@H](O)[C@@H]2F)c(=O)[nH]c1=O,plaque count,MP,HELF,0.003 µg/mL
CC1(C)OCC2(CO[C@@H](n3ccc(=O)[nH]c3=O)C2)O1,,,CCL18,>100 µM
Nc1nc(=S)n([C@@H]2O[C@H](CO)[C@@H](O)[C@@H]2O)cc1CO,cytopathic effect,A4-3 (TK-),RPMI8226,>253.5 µM
O=C(O)P(=O)(O)O,plaque count,MMUDR-resistant,RK-13,31 µM
CC1(C)OCC2(CO[C@H](n3ccc(NC(=O)c4ccccc4)nc3=O)C2)O1,,,CCL18,>100 µM
Clc1cccc(-c2cc3c(-c4ccnc(NC5CCCC5)n4)ccc(NC4CCCC4)n3n2)c1,antigen / hybridisation,SC16,VERO 76,0.17 µM
Nc1nc(=S)n([C@@H]2O[C@H](CO)[C@@H](O)[C@@H]2O)cc1/C=C/c1ccccc1,cytopathic effect,KOS (TK+),RPMI8226,>258.7 µM
OC[C@H]1O[C@@H](c2cc(/C=C/I)c(F)cc2F)C[C@@H]1O,cytopathic effect,McIntyre,E6SM,48 µg/mL
Nc1nc(=S)n([C@@H]2O[C@H](CO)[C@@H](O)[C@@H]2O)cc1Br,plaque count,KOS,RPMI8226,139 µM
CCCCCCc1cn([C@@H]2O[C@H](COP(=O)(O)O)[C@@H](O)[C@H]2O)c(=O)nc1N,,McIntyre,,>400 µg/mL
Nc1nc(=S)n([C@H]2C[C@H](O)[C@@H](CO)O2)cc1Br,plaque count,KOS,RPMI8226,2.49 µM
NC(=O)c1cccc(-c2cc3c(-c4ccnc(NC5CCCC5)n4)ccc(NC4CCCC4)n3n2)c1,antigen / hybridisation,SC16,VERO 76,1.67 µM
CCCCCCCC/C=C\CCCCCCCOCCCOP(=O)(O)CO[C@H](CO)Cn1ccc(N)nc1=O,plaque count,E-377,HFF,0.02 µM
Cc1cn([C@@H]2O[C@H](CO)[C@@H](O)[C@@H]2O)c(=O)[nH]c1=O,plaque count,VR-3,HELF,0.12 µg/mL
Cc1cn(C(CF)CCCO)c(=O)[nH]c1=O,cytopathic effect,B2006 (TK-),ESM,>400 µg/mL
CCCCCCCCCCCCOCCCOP(=O)(O)CO[C@H](CO)Cn1ccc(N)nc1=O,plaque count,E-377,HFF,0.5 µM
O=c1ccn([C@@H]2C[C@](O)(CO)CO2)c(=O)[nH]1,,,CCL18,>100 µM
Nc1nc(=S)n([C@@H]2O[C@H](CO)[C@@H](O)[C@@H]2O)cc1I,plaque count,KOS,RPMI8226,11.4 µM
C=Cc1cn([C@@H]2O[C@H](CO)[C@@H](O)[C@@H]2O)c(=S)nc1N,cytopathic effect,A4-3 (TK-),RPMI8226,>266.3 µM
OC[C@H]1O[C@@H](c2cc(C#CBr)c(F)cc2F)C[C@@H]1O,cytopathic effect,KOS ACV-R (TK-),E6SM,>400 µg/mL
[N-]=[N+]=NCc1cn([C@H]2C[C@H](O)[C@@H](CO)O2)c(=O)[nH]c1=O,cytopathic effect,KOS,HSF,2 µg/mL
O=C(NCc1ccc(Cl)cc1)c1cn2c3c(cc(CN4CCOCC4)cc3c1=O)OC(c1cccnc1)C2,plaque count,13231,HFF,10.8 µM
C=Cc1cc([C@H]2C[C@H](O)[C@@H](CO)O2)c(F)cc1F,cytopathic effect,F,E6SM,>400 µg/mL
Cc1cn([C@@H]2O[C@H](CO)[C@@H](O)[C@@H]2O)c(=S)nc1N,cytopathic effect,KOS (TK+),RPMI8226,92.2 µM
Cc1cn([C@@H]2O[C@H](CO)[C@@H](O)[C@@H]2F)c(=O)[nH]c1=O,plaque count,F,VERO,0.3 µM
O=c1[nH]c(=S)n([C@H]2C[C@H](O)[C@@H](CO)O2)cc1Br,plaque count,KOS,RPMI8226,16.2 µM
c1ccc(Oc2ccc(-c3cc4c(-c5ccnc(NC6CCCC6)n5)ccc(NC5CCCC5)n4n3)cc2)cc1,antigen / hybridisation,SC16,VERO 76,0.9 µM
O=C1O[C@H](CO)C[C@]1(O)CO,,,CCL18,>100 µM
Nc1ccn(CCCC(O)CF)c(=O)n1,cytopathic effect,KOS,ESM,>400 µg/mL
Cc1cn([C@@H]2O[C@H](CO)[C@@H](O)[C@@H]2F)c(=O)[nH]c1=O,plaque count,VR-3,CCRF-HSB-2,0.085 µM
c1ccc(-c2ccc(-c3cc4c(-c5ccnc(NC6CCC6)n5)ccc(NC5CCC5)n4n3)cc2)cc1,antigen / hybridisation,SC16,VERO 76,2.79 µM
CCc1cn([C@H]2C[C@H](O)[C@@H](CO)O2)c(=S)[nH]c1=O,cytopathic effect,A4-3 (TK-),RPMI8226,>288.6 µM
CCCc1cn([C@@H]2O[C@H](COP(=O)(O)O)[C@@H](O)[C@H]2O)c(=O)nc1N,,KOS,,>400 µg/mL
Nc1nc2c(ncn2CC(CO)CCO)c(=O)[nH]1,plaque count,C1 (101),VERO,1.7 µM
CS(=O)(=O)Nc1cccc(-c2cc3c(-c4ccnc(NC5CCCC5)n4)ccc(NC4CCCC4)n3n2)c1,antigen / hybridisation,SC16,VERO 76,2.09 µM
Nc1nc(=S)n([C@H]2C[C@H](O)[C@@H](CO)O2)cc1Cl,plaque count,KOS,RPMI8226,22.1 µM
Cc1cccc(C)c1N(CC(=O)Nc1ccc(-c2ncon2)cc1)C(C)C1CCS(=O)(=O)CC1,plaque count,A4-3,Vero Cells + HEF cells,0.067 µM
Nc1nc(=S)n([C@@H]2O[C@H](CO)[C@@H](O)[C@@H]2O)cc1F,plaque count,KOS,RPMI8226,288 µM
CCC(C)Oc1ccc(-c2cc3c(-c4ccnc(NC5CCCC5)n4)ccc(NC4CCCC4)n3n2)cc1,antigen / hybridisation,SC16,VERO 76,0.58 µM
CC(=O)OC[C@H]1OC(OC(=O)NS(=O)(=O)OC[C@H]2O[C@@H](n3ccc(=O)[nH]c3=O)[C@@H]3OC(C)(C)O[C@@H]32)[C@H](OC(C)=O)[C@@H](OC(C)=O)[C@@H]1OC(C)=O,cytopathic effect,,HeLa,90 µM
N#Cc1cccc(-c2cc3c(-c4ccnc(NC5CCCC5)n4)ccc(NC4CCCC4)n3n2)c1,antigen / hybridisation,SC16,VERO 76,0.28 µM
Cc1cn([C@H]2C[C@H](O)[C@@H](CO)O2)c(=S)[nH]c1=O,cytopathic effect,A4-3 (TK-),RPMI8226,>302.6 µM
Nc1ccn([C@H]2C[C@](O)(CO)CO2)c(=O)n1,,,CCL18,>100 µM
COc1cccc(-c2cc3c(-c4ccnc(NC5CCCC5)n4)ccc(NC4CCCC4)n3n2)c1,antigen / hybridisation,SC16,VERO 76,0.2 µM
N=C1c2ncn([C@@H]3O[C@H](CO)[C@@H](O)[C@H]3O)c2NCN1OCc1ccc(F)cc1,cytopathic effect,Strain HF,KB,100 µg/mL
Nc1nc2c(ncn2COCCO)c(=O)[nH]1,plaque count,Fukuda,CV-1,<2.5 µM

A second listing of 7 rows from above:

structure	read by	strain or isolate	cell line	result
OC[C@H]1O[C@@H](c2cc(/C=C/I)c(F)cc2F)C[C@@H]1O	cytopathic effect	McIntyre	E6SM	48 µg/mL
CS(=O)(=O)Nc1cccc(-c2cc3c(-c4ccnc(NC5CCCC5)n4)ccc(NC4CCCC4)n3n2)c1	antigen / hybridisation	SC16	VERO 76	2.09 µM
O=c1[nH]c(=S)n([C@H]2C[C@H](O)[C@@H](CO)O2)cc1Br	plaque count	KOS	RPMI8226	16.2 µM
Nc1nc2c(ncn2C[C@]2(CO)C[C@H]2CO)c(=O)[nH]1	plaque count	KOS	BALB/3T3	0.0013 µg/mL
CCCCCCCC/C=C\CCCCCCCCOCCOP(=O)(O)CO[C@H](CO)Cn1ccc(N)nc1=O	plaque count	F	HFF	0.03 µM
Clc1cccc(-c2cc3c(-c4ccnc(NC5CCCC5)n4)ccc(NC4CCCC4)n3n2)c1	antigen / hybridisation	SC16	VERO 76	0.17 µM
COc1cccc(-c2cc3c(-c4ccnc(NC5CCCC5)n4)ccc(NC4CCCC4)n3n2)c1	antigen / hybridisation	SC16	VERO 76	0.2 µM